B1: 2B29 scFv (yeast displayed) (scFv)
scFv: QVQLQESGPGLVKPSETLSLTCSVSGGSINSGTYYWTWIRQHPGKGLEWIGYIYYSGTTYYNPSLKSRVSMSVDTSKNLFSLKMNSVTAADTALYYCARGNPQYDTSGSYTGLYFDFWGQGTLVTVSSGGGGSGGGGSGGGGSQPVLTQSPSASGTPGQRVTISCSGSSSNLGSNTVSWYQQLPGTAPKLLIYSNNQRPSGVPDRFSGSKSGTSASLAISGLQSEDEADYYCATWDDSLSGGVFGGGTKLTVLG
B2: 4A1.1 IgG (antibody, V domains shown)
VH: QVQLVQSGGGLAQPGGSLRLSCAASGFTFGSYSMNWVRQAPGKGLEWVSSITGNSGLIYYADSVKGRFTVSRDNAKNSLFLHMHSLRADDTAVYYCARDPGWIYSDTSAAGWFDPWGHGTLVTVSS
VL: DVVMTQSPSTLSASVGDRVTITCRASQTISSYLNWYQQKPGKAPKLLIYAASSLQSGVPSRFSGSGSGTDFTLTISSLQPEDFATYYCQQSYDTPRTFGQGTRLEIK

What was measured:
[1] = molecular target: Botulinum neurotoxin type B, subtype B3 (BoNT/B3) (Clostridium botulinum); test: flow cytometry; yeast-displayed scFv, soluble toxin
[2] = molecular target: Botulinum neurotoxin type B, subtype B4 (BoNT/B4) (Clostridium botulinum); test: as above
[3] = molecular target: Botulinum neurotoxin type A, subtype A2 (BoNT/A2, FRI-H1A2) (Clostridium botulinum, UniProt Q45894 2-1296); test: KinExA flow fluorimetry; IgG in solution

| Binder | Kd [1] | Kd [2] | Kd [3] |
| --- | --- | --- | --- |
| B1 | 1.61 nM | 1.29 nM | – |
| B2 | – | – | > 1 nM |

From US20110200615A1 (published 2011)
